Results of unrelated studies side by side (data: NIAID ChemDB).

All rows: whole-cell or culture tests; organism: Mycobacterium smegmatis; read-out: MIC

Rows are shuffled and stem from different studies. An empty or dashed field is not shown.

O=C(CCCCCCCCCCCCCCCCCNCC(=O)N1CCOP(=O)(O)OCC1)N1CCOP(=O)(O)OCC1 ; value: 23.4 µM
O=C(O)c1c[nH]c2cc(OCc3ccccc3)ccc2c1=O ; strain or isolate: mc2155 ; value: >100 µM
Cc1c(N2CC3CCC(C)(N)C3C2)c(F)cn2c(=O)c(C(=O)O)cc(C3CC3)c12.Cl ; strain or isolate: ATCC114 ; value: 0.01 µg/mL
C=CC1=C(C)c2cc3[n-]c(cc4[n-]c(cc5nc(cc1n2)C(C)=C5C=C)c(C)c4CCC(=O)O)c(CCC(=O)O)c3C.[Mg+2] ; strain or isolate: LR222 ; value: 20 µg/mL
C[C@@H]1CN(c2nc3c(cc2F)c(=O)c(C(=O)O)cn3C(C)(C)C)C[C@H](C)N1 ; strain or isolate: ATCC 19420 ; value: 0.13 µg/mL
[O-]c1ccccc1CNCCCCCCNCCCCCCCCNCCCCCCNCc1ccccc1[O-] ; strain or isolate: mc2155 ; value: 12.5 µM
CC(O)C(C)NCCNC(C)C(C)O.Cl.Cl ; strain or isolate: ATCC 607 ; value: >250 µg/mL
CC1CN(c2nc3c(cc2F)c(=O)c(C(=O)O)cn3-c2ccc(F)cc2F)CC(C)N1 ; strain or isolate: ATCC 19420 ; value: 2 µg/mL
Cc1c(N2CCC(CCO)CC2)c(F)cn2c(=O)c(C(=O)O)cc(C3CC3)c12 ; strain or isolate: ATCC114 ; value: 0.2 µg/mL
C[C@H]1c2cccc(O)c2C(O)=C2C(=O)[C@]3(O)C(O)=C(C(N)=O)C(=O)[C@@H](N(C)C)[C@@H]3[C@@H](O)[C@@H]21 ; strain or isolate: A9826 ; value: 0.06 µg/mL
Cc1c(N2C[C@@H](N)C[C@@H]2C)c(F)cn2c(=O)c(C(=O)O)cc(C3CC3)c12.Cl ; strain or isolate: ATCC114 ; value: 0.2 µg/mL
CC(C)(C)n1cc(C(=O)O)c(=O)c2cc(F)c(N3CCC(N)C3)nc21 ; strain or isolate: ATCC 19420 ; value: ≤0.03 µg/mL
Cc1c(CN2CCN(C)CC2)cc(-c2ccc(Cl)cc2)n1-c1ccc(Cl)cc1 ; strain or isolate: 103599 ; value: 25 µg/mL
N#Cc1cccc2oc3ccccc3c(=O)c12 ; strain or isolate: ATCC 607 ; value: >32 µg/mL
CC1CN(C(=O)CCCCCCCCCCCCCCCCCNCC(=O)N2CC(C)OP(O)(=S)OC(C)C2)CC(C)OP(O)(=S)O1 ; value: 23.4 µM
CCCCCCn1c(-c2ccc(Cl)cc2)cc(CN2CCN(C)CC2)c1C ; strain or isolate: 103599 ; value: 8 µg/mL
COC(=O)c1cccc2c(=O)c3ccccc3oc12 ; strain or isolate: ATCC 607 ; value: >32 µg/mL
CCCCN(CCCC)CCc1c[nH]c2ccccc12 ; strain or isolate: ATCC 700084 ; value: 9.76 µg/mL
Cc1cc(N)c2ccccc2[n+]1CCCCCCCCCC[n+]1c(C)cc(N)c2ccccc21 ; strain or isolate: mc2155 ; value: 3.125 µM
Cc1ccc(C)n1Cc1ccccc1 ; strain or isolate: 103599 ; value: >16 µg/mL
CCC(CO)NCCNC(C)C ; strain or isolate: ATCC 607 ; value: 15 µg/mL
Cc1ccc(C)n1C1CCCCC1 ; strain or isolate: 103599 ; value: >16 µg/mL
CCC(CO)NCCCNC(CC)CO ; strain or isolate: ATCC 607 ; value: 60 µg/mL
CCn1cc(C(=O)O)c(=O)c2cc(F)c(N3CCNC(C)C3)nc21 ; strain or isolate: ATCC 19420 ; value: 1 µg/mL
Cc1cccc2oc3ccccc3c(=O)c12 ; strain or isolate: ATCC 607 ; value: >32 µg/mL
Cc1c(CN2CCN(C)CC2)c(CN2CCN(C)CC2)c(-c2ccc(Cl)cc2)n1C1CCCCC1 ; strain or isolate: 103599 ; value: >64 µg/mL
C=C(NC(=O)C(=C)NC(=O)c1csc(C2=NC3CC4(C2)NC(=O)C(C)NC(=O)C(=C)NC(=O)C(=C)NC(=O)C(C(C)C)NC2C=Cc5c(C(C)O)cc(nc5C2O)C(=O)OC(C)C(NC(=O)c2csc(n2)C(C(C)(O)C(C)O)NC(=O)C2CSC(=N2)/C(=C\C)NC(=O)C(C(C)O)NC(=O)c2csc4n2)c2nc3cs2)n1)C(N)=O ; strain or isolate: mc2155 ; value: 1.56 µM
CCNCC1CCN(c2c(F)cn3c(=O)c(C(=O)O)cc(C4CC4)c3c2C)CC1.Cl ; strain or isolate: ATCC114 ; value: 0.39 µg/mL
C=C(C)O[C@H]1C[C@@]2(C)[C@@H](C[C@@H](O)[C@H]3[C@@]4(C)CC[C@@H](O)[C@@H](C)[C@@H]4CC[C@@]32C)/C1=C(\CCC=C(C)C)C(=O)[O-] ; strain or isolate: mc2155 ; value: >100 µM
C[C@@H]1[C@H](O)[C@@H](C)/C=C/C=C/C=C/C=C/C=C/C=C/C=C/[C@H](O[C@@H]2O[C@H](C)[C@@H](O)[C@H](N)[C@@H]2O)C[C@@H]2O[C@](O)(C[C@@H](O)C[C@@H](O)[C@H](O)CC[C@@H](O)C[C@@H](O)CC(=O)O[C@H]1C)C[C@H](O)[C@H]2C(=O)O ; value: 0.41 µM
C=Cc1c(C)c2cc3[nH]c(cc4nc(cc5nc(cc1[nH]2)C(C)=C5CCC(=O)O)C(CCC(=O)O)=C4C)c(C)c3C=C ; strain or isolate: LR222 ; value: >40 µg/mL
CC(C)(CO)NCCNC(C)(C)CO.Cl.Cl ; strain or isolate: ATCC 607 ; value: 60 µg/mL
CCCCCCn1c(C)cc(CN2CCOCC2)c1C ; strain or isolate: 103599 ; value: >64 µg/mL
C/C(=N\Nc1ccc2ccccc2n1)c1ccccc1O ; strain or isolate: mc2155 ; value: >100 µM
Cc1c(N2CCCC3(C2)OCCO3)c(F)cn2c(=O)c(C(=O)O)cc(C3CC3)c12 ; strain or isolate: ATCC114 ; value: 0.39 µg/mL
Cc1c(CN2CCOCC2)cc(-c2ccc(Cl)cc2)n1Cc1ccccc1 ; strain or isolate: 103599 ; value: >64 µg/mL
C=C[C@]1(C)C=C2c3c[nH]c4cccc(c34)C(C)(C)[C@H]2C[C@H]1O ; value: >100 µM
Cc1c2cc[n+](CCN3CCCCC3)cc2c(C)c2c1[nH]c1ccc(O)cc12 ; strain or isolate: mc2155 ; value: 25 µM
O=C(O)c1ccc2c(=O)c3ccccc3oc2c1C(=O)O ; strain or isolate: ATCC 607 ; value: >32 µg/mL
CC1(C)C=Cc2c(ccc(C(=O)/C=C/c3ccc(O)cc3)c2O)O1 ; strain or isolate: ATCC 700084 ; value: 9.76 µg/mL
Cc1ccc2c(=O)c3ccccc3oc2c1 ; strain or isolate: ATCC 607 ; value: >32 µg/mL
CNCC1CCN(c2c(F)cc3c(=O)c(C(=O)O)cn(C4CC4)c3c2OC)C1 ; strain or isolate: ATCC 19420 ; value: 0.06 µg/mL
Cc1c(CN2CCOCC2)c(CN2CCOCC2)c(-c2ccc(Cl)cc2)n1C1CCCCC1 ; strain or isolate: 103599 ; value: 8 µg/mL
N#CC(C#N)=NNc1cccc(Cl)c1 ; strain or isolate: PSB51 LFR ; value: 30 µg/mL
NC1CCN(c2nc3c(cc2F)c(=O)c(C(=O)O)cn3C2CC2)C1 ; strain or isolate: ATCC 19420 ; value: 0.13 µg/mL
CN(C)[C@@H]1C(=O)C(C(N)=O)=C(O)[C@@]2(O)C(=O)C3=C(O)c4c(O)cccc4[C@@](C)(O)[C@H]3C[C@@H]12 ; strain or isolate: mc2155 ; value: 2 µg/mL
C=CC1=C(C)C2=Cc3c(C)c(CCC(=O)O)c4[n]3[Ga][n]3c(c(C)c(CC)c3=CC3=NC(=C4)C(CCC(=O)O)=C3C)=CC1=N2 ; strain or isolate: LR222 ; value: 0.4 µg/mL
CCCCCCn1c(C)ccc1-c1ccc(Cl)cc1 ; strain or isolate: 103599 ; value: >16 µg/mL

Repeating the first 7 entries:

structure,strain or isolate,value
O=C(CCCCCCCCCCCCCCCCCNCC(=O)N1CCOP(=O)(O)OCC1)N1CCOP(=O)(O)OCC1,-,23.4 µM
O=C(O)c1c[nH]c2cc(OCc3ccccc3)ccc2c1=O,mc2155,>100 µM
Cc1c(N2CC3CCC(C)(N)C3C2)c(F)cn2c(=O)c(C(=O)O)cc(C3CC3)c12.Cl,ATCC114,0.01 µg/mL
C=CC1=C(C)c2cc3[n-]c(cc4[n-]c(cc5nc(cc1n2)C(C)=C5C=C)c(C)c4CCC(=O)O)c(CCC(=O)O)c3C.[Mg+2],LR222,20 µg/mL
C[C@@H]1CN(c2nc3c(cc2F)c(=O)c(C(=O)O)cn3C(C)(C)C)C[C@H](C)N1,ATCC 19420,0.13 µg/mL
[O-]c1ccccc1CNCCCCCCNCCCCCCCCNCCCCCCNCc1ccccc1[O-],mc2155,12.5 µM
CC(O)C(C)NCCNC(C)C(C)O.Cl.Cl,ATCC 607,>250 µg/mL